Anti-infective test results gathered from many reports (values: NIAID ChemDB through PubChem).

Shared fields: growth or infection tests; organism: Mycobacterium tuberculosis

Percent inhibition refers to the dose given; in toxicity tests it is the harm to the cells. Blank or dashed fields: not listed here. A number after MIC or MFC names an inhibition level or a share of isolates. Two numbers with a dash give a range or band. Rows are shuffled and stem from different studies. MIC bound comes from a single tested concentration.

compound | strain or isolate | endpoint | changes | read by | cells | tested at | value
COc1ccc(Nc2nnc(-c3ccc(N)cc3)s2)cc1 | H37Rv | inhibition | - | BACTEC | - | 6.25 µg/mL | 3%
Cc1cccc(C)c1N1C(=O)C2Nc3ccccc3SC2C1=O | H37Rv | MIC bound | - | BACTEC | - | - | >12.8 µg/mL
C[C@H]1COc2c(N3C[C@@H](N)C(C)(C)C3)c(F)cc3c(=O)c(C(=O)O)cn1c23 | Rifampicin-sensitive (7 strains pooled) | Mean MIC | - | - | - | - | 1.4 µg/mL
CN(C)c1ccc(C2(c3ccc(N(C)C)cc3)NNC(=O)c3ccccc32)cc1 | - | inhibition | - | BACTEC | - | 0.5 µM | 0%
O=C(c1ccc(S(=O)(=O)c2ccccc2)cc1)C(Cl)Cl | H37Rv | MIC | - | - | - | - | 6.25 µg/mL
CO[C@H]1/C=C/O[C@@]2(C)Oc3c(C)c(O)c4c(O)c(c5c(c4c3C2=O)NC2(CCN(CC(C)C)CC2)N=5)=NC(=O)/C(C)=C\C=C\[C@H](C)[C@H](O)[C@@H](C)[C@@H](O)[C@@H](C)[C@H](OC(C)=O)[C@@H]1C | 131-4 | MBC | - | - | - | - | 0.125 µg/mL
CO[C@H]1/C=C/O[C@@]2(C)Oc3c(C)c(O)c4c(O)c(c(C5SCCS5)c(O)c4c3C2=O)NC(=O)/C(C)=C\C=C\[C@H](C)[C@@H]2OC(C)(C)O[C@@H]([C@@H](C)[C@H](OC(C)=O)[C@@H]1C)[C@@H]2C | H37Rv | MIC | - | BACTEC | VERO | - | 3.13 µg/mL
C=C(CN[C@H]1CC[C@]23OC[C@H](C(C)C)N2C(=O)CC[C@@H]3C1)c1ccc(C(F)(F)F)cc1 | - | MIC | - | resazurin | - | - | 0.5–5 µM
Clc1ccc(-c2nn(-c3ccc(Cl)cc3)cc2C2CC(c3ccc(-c4ccccc4)cc3)=NN2)cc1 | H37Rv | MIC | - | resazurin | - | - | 50 µg/mL
CC(C)CCSc1nc2c(=O)[nH][nH]c(=O)c2n1Cc1ccccc1 | H37Rv | MIC bound | - | BACTEC | - | - | >12.5 µg/mL
CC(C)[C@H]1CO[C@]23CC[C@H](N(Cc4ccc(C(F)(F)F)cc4)C4CN(CCC(F)(F)F)C4)C[C@H]2CCC(=O)N13 | - | MIC | - | resazurin | - | - | <0.5 µM
O=[N+]([O-])c1ccc(Sc2nc3c(Cl)cc(Cl)cc3[nH]2)cc1 | My 331/88 | MIC | - | - | - | - | 4 µM
CCCCCCCCCCCCNC1=C(Cl)C(=O)C(=O)c2cccnc21 | H37Rv | MIC bound | - | BACTEC | - | - | ≤12.5 µg/mL
O=S(=O)(NC1CCN(Cc2ccncc2)CC1)c1ccc(-n2cccn2)cn1 | - | MIC | - | - | - | - | 1.5 µM
O=c1oc2ccc(Br)cc2cc1-c1cs/c(=N\N=C\c2ccc(Br)cc2)n1Cc1ccccc1 | H37Rv | inhibition | - | - | - | 6.25 µg/mL | <11%
O=C(CCl)c1ccc(Sc2ccc(C(=O)CCl)cc2)cc1 | H37Rv | MIC | - | - | - | - | 50 µg/mL
O=C(O)c1cn(C2CC2)c2cc(N3CCN(C/C=C/CN4CCN(c5ccccc5F)CC4)CC3)c(F)cc2c1=O | H37Rv | inhibition | - | - | - | 6.25 µg/mL | 92%
Cc1cccc2c(CN3CC[C@@H](NS(C)(=O)=O)C3)c(-c3ccccc3)[nH]c12 | - | MIC | - | - | - | - | 3.1 µM
Clc1ccc(-n2cc(C3CC(c4ccc5c(c4)CCO5)=NN3)c(-c3cccs3)n2)cc1 | H37Rv | MIC | - | resazurin | - | - | 25 µg/mL
O=C(Nc1ccccc1)c1cc(-c2ccccc2)nc2ccccc12 | H37Rv | MIC | - | fluorescence | - | - | >6.25 µg/mL
CN(C1CCN(Cc2ccncc2)CC1)S(=O)(=O)c1ccc(-n2cccn2)cc1 | - | MIC | - | - | - | - | 12.5 µM
O=C(O)c1cn(C2CC2)c2cc(N3CCN(Cc4ccc(CN5CCN(c6cc7c(cc6F)c(=O)c(C(=O)O)cn7C6CC6)CC5)cc4)CC3)c(F)cc2c1=O | H37Rv | inhibition | - | - | - | 6.25 µg/mL | 64%
O=C(CCl)c1ccc(Oc2ccc(C(=O)CCl)cc2)cc1 | H37Rv | MIC | - | - | - | - | 25 µg/mL
CCN(CC)/C(N)=N/C(N)=Nc1ccc(Cl)cc1 | H37Rv | inhibition | - | resazurin | - | 6.25 µg/mL | 7%
CCOc1cc(/C=N/N=c2\scc(-c3cc4ccccc4oc3=O)n2Cc2ccccc2)ccc1O | H37Rv | MIC | - | - | - | - | >6.25 µg/mL
CO[C@H]1/C=C/O[C@@]2(C)Oc3c(C)c(O)c4c(O)c(c(/C=N/N5CCN(C)CC5)c(O)c4c3C2=O)NC(=O)/C(C)=C\C=C\[C@H](C)[C@H](O)[C@@H](C)[C@@H](O)[C@@H](C)[C@H](OC(C)=O)[C@@H]1C | Rifampicin-sensitive (7 strains pooled) | Mean MIC | - | - | - | - | 4.3 µg/mL
CC(C)[C@H]1CO[C@]23CC[C@H](N(CCF)Cc4ccc(C(F)(F)F)cc4)C[C@H]2CCC(=O)N13 | - | MIC | - | resazurin | - | - | 0.5–5 µM
COc1ccc2c(C)cc(N/N=C/c3cccc4ccccc34)nc2c1 | H37Rv | inhibition | - | BACTEC | - | 12.5 µg/mL | 62%
CN[C@H]1CCN(c2c(F)cc3c(=O)c(C(=O)O)cn4c3c2OC[C@@H]4C)C1 | Rifampicin-sensitive (7 strains pooled) | Mean MIC | - | - | - | - | 3.2 µg/mL
O=C(c1ccc(Sc2ccccc2)cc1)C(Br)Br | H37Rv | MIC | - | - | - | - | 25 µg/mL
Cc1ccc(-c2nn(-c3ccc(Cl)cc3)cc2C2CC(c3ccc4c(c3)CCO4)=NN2)cc1 | H37Rv | MIC | - | resazurin | - | - | 50 µg/mL
FC(F)(F)C(F)(F)C(F)(F)C(F)(F)c1nc2c(Br)c(Br)c(Br)c(Br)c2[nH]1 | My 331/88 | MIC | - | - | - | - | 16 µM
CO[C@H]1/C=C/O[C@@]2(C)Oc3c(C)c(O)c4c(=O)c(c5oc6cc(N7CCN(CC(C)C)CC7)cc(=O)c6nc5c4c3=C2O)NC(=O)/C(C)=C\C=C\[C@H](C)[C@H](O)[C@@H](C)[C@@H](O)[C@@H](C)[C@H](OC(C)=O)[C@@H]1C | H37Rv-pSL (Leu 531 mutation) | MIC | - | - | - | - | 8 µg/mL
CC(C)[C@H]1CO[C@]23CC[C@H](N(Cc4ccc(C(F)(F)F)cc4)C4CNC4)C[C@H]2CCC(=O)N13.O=CO | - | MIC | - | resazurin | - | - | <0.5 µM
CNc1nnc(-c2ccc(N=N/C(C(C)=O)=C(/C)O)cc2)s1 | H37Rv | inhibition | - | BACTEC | - | 6.25 µg/mL | 46%
C[C@H]1COc2c(N3CC[C@H](N(C)C)C3)c(F)cc3c(=O)c(C(=O)O)cn1c23 | Rifampicin-sensitive (7 strains pooled) | Mean MIC | - | - | - | - | 3 µg/mL
O=C(Nc1ccccc1)c1cc(/C=C/c2ccc(-c3ccc([N+](=O)[O-])s3)s2)nc2ccccc12 | H37Rv | MIC | - | fluorescence | - | - | >6.25 µg/mL
C[C@@H]1Cn2cc(C(=O)O)c(=O)c3cc(F)c(N4CCN(/C(N)=N/C(N)=NCCCCCCN=C(N)/N=C(\N)N5CCN(c6c(F)cc7c(=O)c(C(=O)O)cn8c7c6O[C@@H](C)C8)CC5)CC4)c(c32)O1 | ATCC 35837 | MIC | - | broth dilution | - | - | 1.25 µg/mL
O=[N+]([O-])c1cc(Sc2nc3c(Br)cc(Br)cc3[nH]2)cc([N+](=O)[O-])c1 | My 331/88 | MIC | - | - | - | - | 4 µM
COc1ccc(/C=N/N=c2\scc(-c3cc4cc(Br)ccc4oc3=O)n2Cc2ccccc2)cc1 | H37Rv | MIC | - | - | - | - | >6.25 µg/mL
NNC(=O)c1ccncc1 | Rifampicin-sensitive (7 strains pooled) | Mean MIC | - | - | - | - | >33 µg/mL
CC(=O)N1CC(N(Cc2ccc(C(F)(F)F)cc2)[C@H]2CC[C@]34OC[C@H](C(C)C)N3C(=O)CC[C@@H]4C2)C1 | - | MIC | - | resazurin | - | - | 0.5–5 µM
FC(F)(F)c1nc2cc(Cl)c(Cl)cc2[nH]1 | My 331/88 | MIC | - | - | - | - | 8 µM
O=C(c1ccc(Cc2ccccc2)cc1)C(Cl)Cl | H37Rv | MIC | - | - | - | - | 12.5 µg/mL
CC/C(=N\NC(=S)SC)c1ccccn1 | H37Rv | MIC | - | BACTEC | - | - | 128 µg/mL
CCn1cc(C(=O)O)c(=O)c2cnc(N3CCN(Cc4ccc(CN5CCN(c6cc7c(cc6F)c(=O)c(C(=O)O)cn7C6CC6)CC5)cc4)CC3)nc21 | H37Rv | inhibition | - | - | - | 6.25 µg/mL | 23%
Cc1c(N2C[C@@H](N)C3(CC3)C2)c(F)cc2c(=O)c(C(=O)O)cn([C@@H]3C[C@@H]3F)c12 | 45 (RFP-resistant) | MIC | - | - | - | - | 0.78 µg/mL
COc1ccc2ncc(COC(=O)Nc3ccccc3)c(COC(=O)Nc3ccccc3)c2c1 | H37Rv | MIC bound | - | BACTEC | - | - | ≤12.5 µg/mL
CC(=O)/C(N=Nc1ccc(-c2nnc(NCc3ccccc3)s2)cc1)=C(\C)O | H37Rv | inhibition | - | BACTEC | - | 6.25 µg/mL | 0%
CC(=O)Oc1ccccc1C(=O)Nc1ncc([N+](=O)[O-])s1 | T spoligotype 51 | MIC | - | visual reading | - | - | 20 µg/mL
Cc1ccc(NC(=O)c2cc(-c3ccccc3)nc3ccc(C)cc23)cc1 | H37Rv | MIC | - | fluorescence | - | - | >6.25 µg/mL
COCCN(C1CCN(CC2C(c3ccc(C)cc3)=Nc3c(C)cccc32)C1)S(C)(=O)=O | - | MIC | - | - | - | - | 25 µM
CC(=O)/C(N=Nc1ccc(-c2nnc(NC3CCCCC3)s2)cc1)=C(\C)O | H37Rv | inhibition | - | BACTEC | - | 6.25 µg/mL | 11%
CC(=O)NC(CCC(=O)C=[N+]=[N-])C(=O)O | H37Rv | MIC | - | BACTEC | - | - | ≥12.8 µg/mL
FC(F)(F)C(F)(F)C(F)(F)c1nc2cc(Cl)c(Cl)cc2[nH]1 | My 331/88 | MIC | - | - | - | - | 8 µM
CC(C)=CCOc1c2ccoc2cc2oc(=O)ccc12 | H37Rv clinical isolate CRY3 | MIC100 | Isoniazid- and rifampicin-resistant | resazurin | - | - | 200 µg/mL
C[C@H]1COc2c(N3CC[C@@H](CNC4CC4)C3)c(F)cc3c(=O)c(C(=O)O)cn1c23 | Rifampicin-resistant (5 strains pooled) | Mean MIC | - | - | - | - | 1.7 µg/mL
CCCNc1nnc(-c2ccc(N)cc2)s1 | H37Rv | inhibition | - | BACTEC | - | 6.25 µg/mL | 0%
CCC1CN(c2c(F)cc3c(=O)c(C(=O)O)cn(C4CC4)c3c2OC)CCN1 | 71 (RFP-resistant) | MIC | - | - | - | - | 1 µg/mL
CC#CC#C/C=C1\C=CC2(OC=CC2OC(C)=O)O1 | CS-R | MIC | - | - | - | - | >12.5 µg/mL
O=[N+]([O-])c1cc(Sc2nc3ccc(I)cc3[nH]2)cc([N+](=O)[O-])c1 | My 331/88 | MIC | - | - | - | - | 4 µM
C=CC(C)(O)CCCCCCCCCCC | H37Rv | inhibition | - | resazurin | - | 6.25 µg/mL | -8%
Clc1ccc(-n2cc(C3CC(c4ccc5c(c4)CCO5)=NN3)c(-c3ccccc3)n2)cc1 | H37Rv | MIC | - | resazurin | - | - | 12.5 µg/mL
Cc1ccc(/C=N/N=c2\scc(-c3cc4cc(Br)ccc4oc3=O)n2Cc2ccccc2)cc1 | H37Rv | MIC | - | - | - | - | >6.25 µg/mL
Nc1ncc(NCCCNc2ccc(C(=O)NC(CCC(=O)O)C(=O)O)cc2)c(=O)[nH]1 | H37Rv | MIC bound | - | BACTEC | - | - | >12.5 µg/mL
COCCN(C1CCN(CC2C(c3ccccc3)=Nc3c(OC)cccc32)C1)S(C)(=O)=O | - | MIC | - | - | - | - | 6.25 µM
Cc1[nH]nc(C(=O)NO)c1[N+](=O)[O-] | H37Rv | MIC bound | - | BACTEC | - | - | >12.5 µg/mL
Cc1ccc(C2=NNC(c3cn(-c4ccc(Cl)cc4)nc3-c3cccs3)C2)o1 | H37Rv | MIC | - | resazurin | - | - | 50 µg/mL
O=S1c2ccccc2Sc2ccccc21 | H37Rv | MIC bound | - | BACTEC | - | - | >6.25 µg/mL
Cc1c(N2CC3CCCNC3C2)c(F)cc2c(=O)c(C(=O)O)cn([C@@H]3C[C@@H]3F)c12 | Kurono RFP-susceptible | MIC | - | - | - | - | 0.006 µg/mL
O=C1C=C(Nc2ncccn2)c2ccccc2C1=O | H37Rv | inhibition | - | resazurin | - | 6.25 µg/mL | 97%
O=C(CCl)c1ccc(-c2ccccc2)cc1 | H37Rv | MIC | - | - | - | - | 12.5 µg/mL
COC(=O)C(C(=O)C(N)=O)c1csc(-n2nc(-c3ccccc3)cc2-c2ccccc2)n1 | H37Rv | inhibition | - | resazurin | - | 6.25 µg/mL | 22%
O=C(Nc1ccccc1)c1cc(-c2cccs2)nc2ccccc12 | H37Rv | MIC | - | fluorescence | - | - | >6.25 µg/mL
N#CC1=C(N)OC(C2CC2)=C(C#N)C1c1ccco1 | H37Rv | inhibition | - | BACTEC | - | 12.5 µg/mL | 52%
Cc1ccc(NC(=O)c2cc(-c3ccc([N+](=O)[O-])s3)nc3ccc(C)cc23)cc1 | H37Rv | MIC | - | fluorescence | - | - | >6.25 µg/mL
CC[C@]1(Cc2ccc(OC)c(OC)c2)[C@@H]2C[C@@H](C3OCCO3)ON2O[C@H](OC2CCCC2(c2ccccc2)c2ccccc2)[C@@H]1OC(C)=O | H37Rv | MIC bound | - | resazurin | - | - | >6.25 µg/mL
CC(C)[C@H]1CO[C@]23CC[C@H](N(Cc4ccc(C(F)(F)F)cc4)C[C@@H]4CCCN4C(=O)OC(C)(C)C)C[C@H]2CCC(=O)N13 | - | MIC | - | resazurin | - | - | <0.5 µM
Cc1ccc(-c2csc(=Nc3ccccc3)n2NC(=O)c2ccncc2)cc1 | - | inhibition | - | BACTEC | - | 0.5 µM | 0%
O=C(c1ccc(CCc2ccc(C(=O)C(Cl)Cl)cc2)cc1)C(Cl)Cl | H37Rv | MIC | - | - | - | - | 0.78 µg/mL